Compound potency records, mixed from different reports. Data source: NIAID ChemDB in PubChem.

Shared fields: cytotoxicity tests; cell line: CEM; endpoint: CC50

a–b is a range or a potency band. CCn is the concentration with n% toxicity to the cells. An empty or dashed field is not shown. Rows are shuffled and stem from different studies.

smiles | read by | result
Nc1nc2c(ncn2C2CC(CCP(=O)(O)O)(C(F)(F)F)CO2)c(=O)[nH]1 | MTT | >100 µM
CCCCCCCCCCCCCC(=O)OP(=O)(O)OP(=O)(O)OP(=O)(O)OC[C@H]1O[C@@H](n2cc(C)c(=O)[nH]c2=O)C[C@@H]1N=[N+]=[N-] |  | >50 µM
CCOC(=O)CCc1ccccc1OP(=O)(N[C@@H](C)C(=O)OC(C)C)OC[C@H]1O[C@@H](n2cnc3c(N)nc(N)nc32)[C@](C)(O)[C@@H]1O |  | >100 µM
COc1cc(C2C(Cl)C(=O)N2NC(=O)c2ccccc2O)cc(OC)c1OC |  | 4.4 µM
Cc1cc(SC2=C(O)CC(CCc3ccc(N)cc3)(C(C)C)OC2=O)c(C(C)(C)C)cc1CO |  | >100 µM
CCCCCCCCCCCC(=O)NCC(COP(=O)([O-])OCCC[N+](C)(C)C)OCCCCCCCC |  | 54.3 µM
Nc1ccn([C@H]2CC[C@@H](CO)O2)c(=O)n1 |  | 3 µM
CCOCn1c(Cc2ccccc2)c(C(C)C)c(=O)[nH]c1=O |  | >20 µg/mL
COC(=O)[C@H](C)NP(=O)(OC[C@@H]1C=C[C@H](n2cc(C)c(=O)[nH]c2=O)O1)Oc1ccccc1 |  | ≥100 µM
Nc1ncnc2c1ncn2CCOCP(=O)(O)O | MTT | >100 µM
CC1=NN(C(=O)c2ccccc2O)C(=O)/C1=C/c1cccc([N+](=O)[O-])c1 |  | 0.098 µM
Cc1cn([C@H]2C=C[C@@H](CO)O2)c(=O)[nH]c1=O |  | 234 µM
CCOC(=O)c1cn([C@@H]2O[C@H](CO[Si](C)(C)C(C)(C)C)C3(OS(=O)(=O)C=C3N)[C@H]2O[Si](C)(C)C(C)(C)C)nn1 |  | >0.54 µM
Cc1cn([C@H]2C=C[C@@H](COP3(=O)OCc4cc(CCC(=O)NC(C)C(=O)OC(C)(C)C)ccc4O3)O2)c(=O)[nH]c1=O |  | 53 µM
Nc1nc(NC2CC2)c2ncn([C@H]3C=C[C@@H](CO)O3)c2n1 |  | 200 µM
NCC(=O)Nc1ccc(Cl)cc1C(=O)c1ccc[nH]1 |  | 3 µg/mL
Cc1cn([C@H]2C[C@H](F)[C@@H](C(C)O)O2)c(=O)[nH]c1=O |  | >100 µg/mL
CCOC(=O)[C@H](C)NP(=O)(OC[C@H]1O[C@@H](n2cnc3c(N)nc(N)nc32)[C@](C)(O)[C@@H]1O)Oc1ccccc1CCC(=O)OC(C)C |  | >100 µM
Nc1ncnc2c1ncn2[C@@H]1OC[C@](CO)(CCP(=O)(O)O)[C@@H]1F | MTT | 44 µM
CC(C)Nc1cccnc1N1CCN(C(=O)c2cc3cc(NS(C)(=O)=O)ccc3[nH]2)CC1 |  | >20 µg/mL
Cc1ccnc2c1NC(=O)c1cccnc1N2C1CC1 |  | >0.11 µM
Cc1cc(SC2=C(O)C[C@@](CCc3ccc(N)cc3)(C(C)C)OC2=O)c(C(C)(C)C)cc1CO |  | 210 µM
CCCCCCCCCC(=O)NCC(COP(=O)([O-])OCC[N+](C)(C)C)OCCCCCC |  | >100 µM
O=P(c1ccccc1)(c1ccccc1)c1ccccc1 |  | 40 µM
CC(=O)c1ccc(C)cc1NC(C(N)=O)c1c(Cl)cccc1Cl |  | 127 µM
CCOC(=O)CCc1ccccc1O[P@](=O)(N[C@@H](C)C(=O)OCC)OC[C@H]1O[C@@H](n2cnc3c(N)nc(N)nc32)[C@](C)(O)[C@@H]1O |  | >100 µM
COCCCCCCCCCCCC(=O)OP(=O)(O)OP(=O)(O)OP(=O)(O)OC[C@H]1O[C@@H](n2cc(C)c(=O)[nH]c2=O)C[C@@H]1N=[N+]=[N-] |  | >50 µM
Fc1cccc(F)c1C1SCc2nc3ccccc3n21 |  | 19 µM
CC1=NN(C(=O)c2ccc(Cl)cc2)C(=O)/C1=C/c1ccccc1O |  | >21 µM
Cc1cn([C@H]2C[C@H](N=[N+]=[N-])[C@@H](COP(=O)(O)O)O2)c(=O)[nH]c1=O |  | >20 µM
CC(C)=CCOc1cc(NC(=S)c2ccsc2C)ccc1Cl |  | 5.8 µg/mL
CCCCCCCCCCCCOCC(COP(=O)([O-])OCC[N+](C)(C)C)OCCCCCCCCCC |  | 75.7 µM
NC(=S)N=Nc1c(O)cc(Nc2ccc(Cl)cc2Cl)c2ccccc12 |  | 200 µM
CCCCCCCCCCCCCC(=O)OP(=O)(O)OP(=O)(O)OC[C@H]1O[C@@H](n2cc(C)c(=O)[nH]c2=O)C[C@@H]1N=[N+]=[N-] |  | >50 µM
Cc1c(Sc2ccccc2)n(COC(CF)COCc2ccccc2)c(=O)[nH]c1=O |  | 0.05–100 µM
CCOCn1c([Se]c2ccccc2)c(F)c(=O)[nH]c1=O |  | 28.9 µM
Cc1cn([C@H]2C[C@H](N=[N+]=[N-])[C@@H](COP(=O)(O)OP(=O)(O)O)O2)c(=O)[nH]c1=O |  | >20 µM
CCCCCCCCCCCC(=O)NCC(COP(=O)(O)OC[C@H]1O[C@@H](n2cc(C)c(=O)[nH]c2=O)C[C@@H]1N=[N+]=[N-])OCCCCCCCC |  | >100 µM
COc1ccc(COCC(COCc2ccccc2)OCSc2ccccc2)cc1 |  | 0.05–100 µM
Cc1cn([C@H]2C[C@H](N=[N+]=[N-])[C@@H](CO)O2)c(=O)[nH]c1=O |  | >20 µg/mL
COCCCCCCCCCCCC(=O)OP(=O)(O)OP(=O)(O)OC[C@H]1O[C@@H](n2cc(C)c(=O)[nH]c2=O)C[C@@H]1N=[N+]=[N-] |  | >50 µM
COC(=O)CNC(=O)CCc1ccc2c(c1)COP(=O)(OC[C@@H]1C=C[C@H](n3cc(C)c(=O)[nH]c3=O)O1)O2 |  | 220 µM
Nc1nc2c(ncn2[C@H]2C=C[C@@H](CO)O2)c(=O)[nH]1 |  | 70 µM
Cc1c(Sc2ccccc2)n(COC(CN=[N+]=[N-])COCc2ccccc2)c(=O)[nH]c1=O |  | 0.05–100 µM
CN(C)C(=O)c1cnnn1[C@@H]1O[C@H](CO[Si](C)(C)C(C)(C)C)C2(OS(=O)(=O)C=C2N)[C@H]1O[Si](C)(C)C(C)(C)C |  | >0.12 µM
CCOCn1c([Se]c2ccccc2)c(C)c(=O)[nH]c1=O |  | >100 µM
Cc1cn([C@H]2C=C[C@@H](CO)O2)c(=O)[nH]c1=O |  | 29 µM
CCCCCCCCCCCCCC(=O)OP(=O)(O)OC[C@H]1O[C@@H](n2cc(C)c(=O)[nH]c2=O)C[C@@H]1N=[N+]=[N-] |  | >20 µM
O=C(O)P(=O)(O)O |  | 800 µM
CC(=O)c1cnnn1[C@@H]1O[C@H](CO[Si](C)(C)C(C)(C)C)C2(OS(=O)(=O)C=C2N)[C@H]1O[Si](C)(C)C(C)(C)C |  | >1.1 µM
NC(=O)NO |  | <50 µM
CCCC1(CCc2ccc(O)cc2)CC(O)=C(Sc2cc(C)c(OCCO)cc2C(C)(C)C)C(=O)O1 |  | 70 µM
CCCc1cn([C@@H]2O[C@H](CO[Si](C)(C)C(C)(C)C)C3(OS(=O)(=O)C=C3N)[C@H]2O[Si](C)(C)C(C)(C)C)nn1 |  | >1.7 µM
Nc1ncnc2c1ncn2C1CC(/C=C/P(=O)(O)O)(C(F)(F)F)CO1 | MTT | >100 µM
Nc1ccn([C@H]2CC[C@@H](CO)O2)c(=O)n1 |  | 3.5 µM
CC(C)=CCN1Cc2cc(Cl)cc3[nH]c(=S)n(c23)C[C@@H]1C |  | >20 µg/mL
COC(=O)[C@H](C)NP(=O)(OC[C@H]1O[C@@H](n2cc(C)c(=O)[nH]c2=O)C[C@@H]1N=[N+]=[N-])Oc1ccccc1 |  | >100 µM
O=S(=O)(c1ccccc1)c1ccccc1 |  | 120 µM
Nc1ncnc2c1ncn2C1CC(CCP(=O)(O)O)(C(F)(F)F)CO1 | MTT | >100 µM
CCOC(=O)CCc1ccccc1O[P@@](=O)(N[C@@H](C)C(=O)OC(C)C)OC[C@H]1O[C@@H](n2cnc3c(N)nc(N)nc32)[C@](C)(O)[C@@H]1O |  | >100 µM
CC1=NN(C(=O)c2ccc(Cl)cc2)C(=O)/C1=C/c1cccc([N+](=O)[O-])c1 |  | >20 µM
Cc1cc(SC2=C(O)CC(CCc3ccc(O)cc3)(C3CC3)OC2=O)c(C(C)(C)C)cc1CO |  | >100 µM

Repeating the final 9 entries:

smiles | read by | result
Nc1ncnc2c1ncn2C1CC(/C=C/P(=O)(O)O)(C(F)(F)F)CO1 | MTT | >100 µM
Nc1ccn([C@H]2CC[C@@H](CO)O2)c(=O)n1 |  | 3.5 µM
CC(C)=CCN1Cc2cc(Cl)cc3[nH]c(=S)n(c23)C[C@@H]1C |  | >20 µg/mL
COC(=O)[C@H](C)NP(=O)(OC[C@H]1O[C@@H](n2cc(C)c(=O)[nH]c2=O)C[C@@H]1N=[N+]=[N-])Oc1ccccc1 |  | >100 µM
O=S(=O)(c1ccccc1)c1ccccc1 |  | 120 µM
Nc1ncnc2c1ncn2C1CC(CCP(=O)(O)O)(C(F)(F)F)CO1 | MTT | >100 µM
CCOC(=O)CCc1ccccc1O[P@@](=O)(N[C@@H](C)C(=O)OC(C)C)OC[C@H]1O[C@@H](n2cnc3c(N)nc(N)nc32)[C@](C)(O)[C@@H]1O |  | >100 µM
CC1=NN(C(=O)c2ccc(Cl)cc2)C(=O)/C1=C/c1cccc([N+](=O)[O-])c1 |  | >20 µM
Cc1cc(SC2=C(O)CC(CCc3ccc(O)cc3)(C3CC3)OC2=O)c(C(C)(C)C)cc1CO |  | >100 µM